Compound potency records, mixed from different reports. Data source: NIAID ChemDB in PubChem.

All rows: tests in culture; species: HIV-1; strain: RF; cells: MT-2; method: hybridisation; read-out: EC50

Conditions beyond the fields shown may differ between rows. ECn is the concentration giving n% inhibition of infection, replication or growth.

compound	value
COc1ccc(C[C@@H]2[C@H](O)[C@@H](O)[C@@H](Cc3ccc(OC)cc3)N(Cc3cccc(-c4ccn[nH]4)c3)C(=O)N2Cc2cccc(-c3ccn[nH]3)c2)cc1	<0.01 µM
O=C1N(Cc2ccc3ccccc3c2)[C@H](Cc2ccccc2)[C@H](O)[C@@H](O)[C@@H](Cc2ccccc2)N1C1CCCC1	<0.66 µM
O=C1N(Cc2cccc(-c3ccn[nH]3)c2)[C@H](Cc2ccc(OCCO)cc2)[C@H](O)[C@@H](O)[C@@H](Cc2ccc(OCCO)cc2)N1Cc1cccc(-c2ccn[nH]2)c1	<0.462 µM
O=C1N(CC2CCC2)[C@H](Cc2ccccc2)[C@H](O)[C@@H](O)[C@@H](Cc2ccccc2)N1CC1CCC1	<1 µM
N#CN=C1N(Cc2ccc(O)cc2)[C@H](Cc2ccccc2)[C@H](O)[C@@H](O)[C@@H](Cc2ccccc2)N1Cc1ccc(O)cc1	<0.25 µM
O=C1N(Cc2ccccc2)[C@H](Cc2ccc(O)cc2)[C@H](O)[C@@H](O)[C@@H](Cc2ccc(O)cc2)N1Cc1ccccc1	<0.185 µM
O=C1N(Cc2cccc(-c3ccn[nH]3)c2)[C@H](Cc2ccccc2)[C@H](O)[C@@H](O)[C@@H](Cc2ccccc2)N1Cc1cccc(-c2ccn[nH]2)c1	<0.056 µM
CC(C)CCN1C(=NC#N)N(CCC(C)C)[C@H](Cc2ccccc2)[C@H](O)[C@@H](O)[C@H]1Cc1ccccc1	<1.1 µM
O=C1N(Cc2cccc(I)c2)[C@H](Cc2ccccc2)[C@H](O)[C@@H](O)[C@@H](Cc2ccccc2)N1Cc1cccc(I)c1	<3 µM
N#CN=C1N(Cc2cccc(O)c2)[C@H](Cc2ccccc2)[C@H](O)[C@@H](O)[C@@H](Cc2ccccc2)N1Cc1cccc(O)c1	<0.13 µM
COc1cccc(C[C@@H]2[C@H](O)[C@@H](O)[C@@H](Cc3cccc(OC)c3)N(Cc3ccccc3)C(=O)N2Cc2ccccc2)c1	<0.35 µM
O=C1N(Cc2ccc(O)cc2)[C@H](Cc2ccccc2)[C@H](O)[C@@H](O)[C@@H](Cc2ccccc2)N1Cc1ccc(O)cc1	<0.032 µM
N#CN=C1N(Cc2cccc(C#N)c2)[C@H](Cc2ccccc2)[C@H](O)[C@@H](O)[C@@H](Cc2ccccc2)N1Cc1cccc(C#N)c1	<3.1 µM
Nc1ccc(C[C@@H]2[C@H](O)[C@@H](O)[C@@H](Cc3ccc(N)cc3)N(Cc3ccccc3)C(=O)N2Cc2ccccc2)cc1	<1.3 µM
CCCN1C(=O)N(CCC)[C@H](Cc2ccccc2)[C@H](O)[C@@H](O)[C@H]1Cc1ccccc1	<54 µM
O=C1N(Cc2ccc3ccccc3c2)[C@H](Cc2ccccc2)[C@H](O)[C@@H](O)[C@@H](Cc2ccccc2)N1Cc1ccc2ccccc2c1	<3.9 µM
O=C1N(Cc2ccccc2)[C@H](Cc2ccc3ccccc3c2)[C@H](O)[C@@H](O)[C@@H](Cc2ccc3ccccc3c2)N1Cc1ccccc1	<3.3 µM
COc1cccc(CN2C(=O)N(Cc3cccc(OC)c3)[C@H](Cc3ccccc3)[C@H](O)[C@@H](O)[C@H]2Cc2ccccc2)c1	<1.3 µM
Nc1cccc(C[C@@H]2[C@H](O)[C@@H](O)[C@@H](Cc3cccc(N)c3)N(Cc3ccccc3)C(=O)N2Cc2ccccc2)c1	<1.3 µM
O=C1N(Cc2ccccc2)[C@H](Cc2ccc(OCCN3CCOCC3)cc2)[C@H](O)[C@@H](O)[C@@H](Cc2ccc(OCCN3CCOCC3)cc2)N1Cc1ccccc1	<0.23 µM
CC(C)CCCN1C(=O)N(CCCC(C)C)[C@H](Cc2ccccc2)[C@H](O)[C@@H](O)[C@H]1Cc1ccccc1	<8.1 µM
N#Cc1ccc(CN2C(=O)N(Cc3ccc(C#N)cc3)[C@H](Cc3ccccc3)[C@H](O)[C@@H](O)[C@H]2Cc2ccccc2)cc1	<5.8 µM
O=C1N(Cc2cccc(-c3ccn[nH]3)c2)[C@H](Cc2ccc(OCc3cccnc3)cc2)[C@H](O)[C@@H](O)[C@@H](Cc2ccc(OCc3cccnc3)cc2)N1Cc1cccc(-c2ccn[nH]2)c1	<0.032 µM

Repeating the final 3 entries:

compound,value
CC(C)CCCN1C(=O)N(CCCC(C)C)[C@H](Cc2ccccc2)[C@H](O)[C@@H](O)[C@H]1Cc1ccccc1,<8.1 µM
N#Cc1ccc(CN2C(=O)N(Cc3ccc(C#N)cc3)[C@H](Cc3ccccc3)[C@H](O)[C@@H](O)[C@H]2Cc2ccccc2)cc1,<5.8 µM
O=C1N(Cc2cccc(-c3ccn[nH]3)c2)[C@H](Cc2ccc(OCc3cccnc3)cc2)[C@H](O)[C@@H](O)[C@@H](Cc2ccc(OCc3cccnc3)cc2)N1Cc1cccc(-c2ccn[nH]2)c1,<0.032 µM